Anti-infective test results gathered from many reports (values: NIAID ChemDB through PubChem).

Shared fields: growth or infection tests; species: Mycobacterium avium; read-out: MIC90

MIC50, MIC90 and the like: level of inhibition, or share of isolates inhibited. An empty or dashed field is not shown. Lines come from different laboratories, so protocols vary.

structure | strain | method | result
CC[C@H]1OC(=O)[C@H](C)[C@@H](O[C@H]2C[C@@](C)(OC)[C@@H](O)[C@H](C)O2)[C@H](C)[C@@H](O[C@@H]2O[C@H](C)C[C@H](N(C)C)[C@H]2O)[C@](C)(OC)C[C@@H](C)C(=O)[C@H](C)[C@@H](O)[C@]1(C)O | Clinical isolate |  | <4 µg/mL
CCCc1c2c([nH]c(=O)c1C)C(=O)c1[nH]c(=O)c(C)c(CCC)c1C2=O | ATCC 15769 | resazurin / fluorescence | 3.85 µg/mL
CCn1cc(C(=O)O)c(=O)c2cc(F)c(N3CCS(=O)CC3)c(F)c21 | 14 strains |  | 16 µg/mL
CO[C@H]1/C=C/O[C@@]2(C)Oc3c(C)c(O)c4c(O)c(c(/C=N/N5CCN(C)CC5)c(O)c4c3C2=O)NC(=O)/C(C)=C\C=C\[C@H](C)[C@H](O)[C@@H](C)[C@@H](O)[C@@H](C)[C@H](OC(C)=O)[C@@H]1C | Clinical isolate |  | 8 µg/mL
CCN(CC)c1nc2c(s1)c1c(O)c3c(O)c(C)c4c(c32)C(=O)[C@@](C)(O/C=C/[C@H](OC)[C@@H](C)[C@@H](OC(C)=O)[C@H](C)[C@H](O)[C@H](C)[C@@H](O)[C@@H](C)/C=C/C=C(/C)C(=O)N1)O4 | 50 strains |  | 1 µg/mL
CO[C@H]1/C=C/O[C@@]2(C)Oc3c(C)c(O)c4c(O)c(c5c(c4c3C2=O)NC2(CCN(CC(C)C)CC2)N=5)=NC(=O)/C(C)=C\C=C\[C@H](C)[C@H](O)[C@@H](C)[C@@H](O)[C@@H](C)[C@H](OC(C)=O)[C@@H]1C | Clinical strains |  | 4 µg/mL
CC[C@H]1OC(=O)[C@H](C)[C@@H](O[C@H]2C[C@@](C)(OC)[C@@H](O)[C@H](C)O2)[C@H](C)[C@@H](O[C@@H]2O[C@H](C)C[C@H](N(C)C)[C@H]2O)[C@](C)(OC)C[C@@H](C)C(=O)[C@H](C)[C@@H](O)[C@]1(C)O | 33 isolates |  | 8 µg/mL
CC1CN(c2cc3c(cc2F)c(=O)c(C(=O)O)cn3-c2ccc(F)cc2F)CCN1 | 22 strains |  | 32 µg/mL
CC[C@H]1OC(=O)[C@H](C)[C@@H](O[C@H]2C[C@@](C)(OC)[C@@H](O)[C@H](C)O2)[C@H](C)[C@@H](O[C@@H]2O[C@H](C)C[C@H](N(C)C)[C@H]2O)[C@](C)(OC)C[C@@H](C)C(=O)[C@H](C)[C@@H](O)[C@]1(C)O | Clinical strains |  | 16 µg/mL
CCn1cc(C(=O)O)c(=O)c2cc(F)c(N3CCNCC3)nc21 | 22 strains |  | 128 µg/mL
O=C(O)c1cn(C2CC2)c2c(F)c(N3CCN4CCC3C4)c(F)cc2c1=O | 14 strains |  | 4 µg/mL
Cc1cc(-c2cc3c(cc2F)c(=O)c(C(=O)O)cn3C2CC2)cc(C)n1 | 55 strains |  | 3.85 µg/mL
CCn1cc(C(=O)O)c(=O)c2cc(F)c(N3CCNCC3)cc21 | 63 strains |  | >16 µg/mL
CC[C@H]1OC(=O)[C@H](C)[C@@H](O[C@H]2C[C@@](C)(OC)[C@@H](O)[C@H](C)O2)[C@H](C)[C@@H](O[C@@H]2O[C@H](C)C[C@H](N(C)C)[C@H]2O)[C@](C)(OC)C[C@@H](C)C(=O)[C@H](C)[C@@H](O)[C@]1(C)O | 9 isolates (HIV+) |  | 4 µg/mL
CNn1cc(C(=O)O)c(=O)c2cc(F)c(N3CCN(C)CC3)cc21 | 22 strains |  | 128 µg/mL
CCNC(C)C1CCN(c2c(F)cc3c(=O)c(C(=O)O)cn(C4CC4)c3c2OC)C1 | 14 strains |  | 8 µg/mL
CO[C@H]1/C=C/O[C@@]2(C)Oc3c(C)c(O)c4c(O)c(c(/C=N/N5CCN(C)CC5)c(O)c4c3C2=O)NC(=O)/C(C)=C\C=C\[C@H](C)[C@H](O)[C@@H](C)[C@@H](O)[C@@H](C)[C@H](OC(C)=O)[C@@H]1C | Reference strains |  | >16 µg/mL
NC1CCN(c2c(F)cc3c(=O)c(C(=O)O)cn(C4CC4)c3c2F)C1 | 14 strains |  | 16 µg/mL
CC(C)N=c1cc2n(-c3ccc(Cl)cc3)c3ccccc3nc-2cc1Nc1ccc(Cl)cc1 | Clinical strains |  | 2 µg/mL
CCn1cc(C(=O)O)c(=O)c2cc(F)c(N3CCN(C)CC3)cc21 | 13 strains |  | >64 µg/mL
CN1CCN(c2cc3c(cc2F)c(=O)c(C(=O)O)cn3-c2ccc(F)cc2)CC1 | 22 strains |  | 128 µg/mL
C[C@@H]1CN(c2c(F)c(N)c3c(=O)c(C(=O)O)cn(C4CC4)c3c2F)C[C@H](C)N1 | 14 strains |  | 4 µg/mL